Reference: ChEMBL document CHEMBL5241077 (Eur J Med Chem, 2021)

Tested on: Yellow fever virus
Test: Antiviral activity against YFV harboring firefly luciferase gene at IRES site infected hamster BHK cells assessed as inhibition of viral replication incubated for 36 hrs by firefly luciferase based bioluminescence assay

Which IC50 does the source give for `C/C(=N\NC(=N)N)c1ccc(NC(=O)Nc2ccc(/C(C)=N/NC(=N)N)cc2)cc1` here?
The IC50 was 13 µM.
